Measured values reported in patent US20040091855A1, “Method for production of antivirals by use of HIV-derived HR1 peptides, and trimers formed therefrom” (priority 2002, published 2004).

How the values were obtained:
[1] = test system: HR2 peptide (SEQ ID NO:33); test: Fluorescence polarization assay of binding to labeled HR2 peptide; design: species or system HIV-1; conditions: ability to complex with HR2 peptide denoted as yes
Description: These include a protein chip assay (using Biacore analysis) in which surface plasmon resonance is used to detect the binding, and kinetics thereof, between a synthetic peptide and an HR2 peptide; and a fluorescence polarization assay. In the fluorescence polarization assay, a detectable moiety comprising a fluorescent dye (e.g., rhodamine and/or fluorescein) was used to label HR2 peptide, and the assay was then allowed to proceed under sufficient conditions and for a sufficient period of time for labeled peptide to bind to HR1 peptide, or synthetic peptide (or trimer formed therefrom).

[2] = Thermal stability (Tm) by CD signal at 222 nm; assay type: physicochemical; conditions: at 10 μM
Protocol: (§1) Helicity was assessed by circular dichroism (“CD”) as follows. Briefly, CD spectra were obtained using a spectrometer equipped with a thermoelectric temperature controller. The spectra was obtained at 25° C. with 0.5 nanometer (nm) steps from 200 to 260 nm, with a 1.5 nm bandwith, and a typical averaging time of 4 seconds/step. After the cell/buffer blank was subtracted, spectra were smoothed using a third-order least-squares polynomial fit with a conservative window size to give random residuals. Raw ellipticity values were converted to mean residue ellipticity using standard methods, and plotted was the wavelength (from 200 to 260 nm) versus [θ]×10^−3 (degrees cm^2/dmol). Percent helicity values were then calculated using standard methods. Assessment of thermal stability was performed by monitoring the change in CD signal at 222 nm as temperature was raised in 2° C. steps, with 1 minute equilibration times. The thermal stability for each sample (e.g., synthetic peptide) was represented by the transition temperature (Tm) determined by the derivative method.

HIV IIIB = assay type: cell-based, HIV-1; conditions: IIIB
[3] = Sedimentation equilibrium experiments (oligomerization state); assay type: physicochemical; conditions: in solution; peptide 1 μM to 100 μM
Protocol: Oligomerization state was assessed by using methods standard in the art for performing sedimentation equilibrium experiments and for analysis of the resultant data. In that regard, sedimentation equilibrium experiments were performed over a concentration range of synthetic peptide (1 μM to 100 μM) as follows. Briefly, six-channel cells (12 mm optical path length) were used with an An-60 Ti rotor operated at 13,500 rpm, 18,000 rpm, 22,000 rpm, and 35,000 rpm) in an analytical ultracentrifuge at 4C. The cell radii were scanned using 0.001 cm steps with 10 averages/scan at 3 different wavelengths (235 nm, 240 nm, 280 nm). Data obtained with solutions containing synthetic peptide was analyzed using a single species model to determine a weight-averaged molecular weight (MW). Diagnostic plots of MW/ MW0 vs. rpm/rpm0 and MW vs. radial concentration were used to test for sample homogeneity. When systemic residuals or a MW higher than monomer molecular weight indicated the presence of self-association, associative models were investigated. The suitability of a model (goodness of fit) was judged by the trends observed in the residuals.

[4] = Helicity by circular dichroism; assay type: physicochemical; conditions: at 10 μM, 25° C.
Protocol: as §1

| SMILES | HR2 peptide binding [1] | Stability Tm [2] | Antiviral activity against HIV IIIB IC50 (HIV IIIB) [µg/mL] | Antiviral activity against HIV IIIB IC90 (HIV IIIB) [µg/mL] | Oligomerization [3] | Helicity [4] [%] |
| --- | --- | --- | --- | --- | --- | --- |
| CC[C@H](C)[C@H](NC(=O)CNC(=O)[C@H](Cc1c[nH]c2ccccc12)NC(=O)[C@@H](NC(=O)[C@@H](NC(=O)[C@H](C)NC(=O)[C@H](CCC(N)=O)NC(=O)[C@H](CC(C)C)NC(=O)[C@H](C)NC(=O)[C@H](Cc1c[nH]cn1)NC(=O)[C@H](CCC(N)=O)NC(=O)[C@H](CCC(N)=O)NC(=O)[C@H](C)NC(=O)[C@H](CCC(=O)O)NC(=O)[C@H](CC(C)C)NC(=O)[C@H](C)NC(=O)[C@H](CCCNC(=N)N)NC(=O)[C@H](CC(C)C)NC(=O)[C@@H](NC(=O)[C@H](CC(N)=O)NC(=O)[C@H](CC(N)=O)NC(=O)[C@H](CCC(N)=O)NC(=O)[C@H](CCC(N)=O)NC(=O)[C@H](CCC(N)=O)NC(=O)[C@@H](NC(=O)[C@H](CC(C)C)NC(=O)CNC(=O)[C@H](CO)NC(=O)[C@@H](NC(=O)[C@H](CC(C)C)NC(=O)[C@H](CCC(N)=O)NC(=O)[C@H](CCCNC(=N)N)NC(=O)[C@H](C)NC(=O)[C@H](CCC(N)=O)NC(C)=O)C(C)C)C(C)C)[C@@H](C)CC)[C@@H](C)O)C(C)C)C(=O)N[C@@H](CCCCN)C(=O)N[C@@H](CCC(N)=O)C(=O)N[C@@H](CC(C)C)C(=O)N[C@@H](CCC(N)=O)C(=O)N[C@@H](C)C(=O)N[C@@H](CCCNC(=N)N)C(=O)N[C@H](C(=O)N[C@@H](CC(C)C)C(=O)N[C@@H](C)C(=O)N[C@@H](CC(C)C)C(=O)N[C@@H](CCC(=O)O)C(=O)N[C@@H](CCCNC(=N)N)C(=O)N[C@@H](Cc1ccc(O)cc1)C(=O)N[C@H](C(=O)N[C@@H](CCCCN)C(=O)N[C@@H](CC(=O)O)C(=O)N[C@@H](CCC(N)=O)C(N)=O)[C@@H](C)CC)C(C)C [SEQ ID NO:39] | Yes | Tm 68 °C | 0.26 | 1.20 | Trimer* | 63 |
| CC[C@H](C)[C@H](NC(=O)CNC(=O)[C@H](Cc1c[nH]c2ccccc12)NC(=O)[C@H](C)NC(=O)[C@@H](NC(=O)[C@H](CC(C)C)NC(=O)[C@H](CCC(N)=O)NC(=O)[C@H](CC(C)C)NC(=O)[C@H](CC(C)C)NC(=O)[C@H](Cc1c[nH]cn1)NC(=O)[C@H](CCC(N)=O)NC(=O)[C@H](CCC(N)=O)NC(=O)[C@H](C)NC(=O)[C@H](CCC(=O)O)NC(=O)[C@@H](NC(=O)[C@H](C)NC(=O)[C@H](CCCNC(=N)N)NC(=O)[C@H](CC(C)C)NC(=O)[C@H](CC(C)C)NC(=O)[C@H](CC(N)=O)NC(=O)[C@H](CC(N)=O)NC(=O)[C@H](CCC(N)=O)NC(=O)[C@H](CCC(N)=O)NC(=O)[C@H](CCC(N)=O)NC(C)=O)[C@@H](C)CC)[C@@H](C)O)C(=O)N[C@@H](CCCCN)C(=O)N[C@@H](CCC(N)=O)C(=O)N[C@@H](CC(C)C)C(=O)N[C@@H](CCC(N)=O)C(=O)N[C@@H](C)C(=O)N[C@@H](CCCNC(=N)N)C(=O)N[C@H](C(=O)N[C@@H](CC(C)C)C(=O)N[C@@H](C)C(=O)N[C@H](C(=O)N[C@@H](CCC(=O)O)C(=O)N[C@@H](CCCNC(=N)N)C(=O)N[C@@H](Cc1ccc(O)cc1)C(=O)N[C@@H](CC(C)C)C(=O)N[C@@H](CCCCN)C(=O)N[C@@H](CC(=O)O)C(=O)N[C@@H](CCC(N)=O)C(N)=O)C(C)C)[C@@H](C)CC [SEQ ID NO:29] | Yes | Tm 65 °C | 2.81 | 5.86 | Trimer* | 78 |
| CC[C@H](C)[C@H](NC(=O)CNC(=O)[C@H](Cc1c[nH]c2ccccc12)NC(=O)[C@@H](NC(=O)[C@@H](NC(=O)[C@H](CC(C)C)NC(=O)[C@H](CCC(N)=O)NC(=O)[C@H](CC(C)C)NC(=O)[C@H](CC(C)C)NC(=O)[C@H](Cc1c[nH]cn1)NC(=O)[C@H](CCC(N)=O)NC(=O)[C@@H](NC(=O)[C@H](C)NC(=O)[C@H](CCC(=O)O)NC(=O)[C@@H](NC(=O)[C@H](C)NC(=O)[C@H](CCCNC(=N)N)NC(=O)[C@H](CC(C)C)NC(=O)[C@H](CC(C)C)NC(=O)[C@H](CC(N)=O)NC(=O)[C@H](CC(N)=O)NC(=O)[C@H](CCC(N)=O)NC(=O)[C@H](CCC(N)=O)NC(=O)[C@H](CCC(N)=O)NC(=O)[C@@H](NC(=O)[C@@H](NC(=O)CNC(=O)[C@H](CO)NC(=O)[C@H](CC(C)C)NC(=O)[C@H](CC(C)C)NC(=O)[C@H](CCC(N)=O)NC(=O)[C@H](CCCNC(=N)N)NC(=O)[C@@H](NC(=O)[C@H](CCC(N)=O)NC(C)=O)[C@@H](C)CC)[C@@H](C)CC)C(C)C)[C@@H](C)CC)[C@@H](C)CC)[C@@H](C)CC)C(C)C)C(=O)N[C@@H](CCCCN)C(=O)N[C@@H](CCC(N)=O)C(=O)N[C@@H](CC(C)C)C(=O)N[C@@H](CCC(N)=O)C(=O)N[C@@H](C)C(=O)N[C@@H](CCCNC(=N)N)C(=O)N[C@H](C(=O)N[C@@H](CC(C)C)C(=O)N[C@@H](C)C(=O)N[C@H](C(=O)N[C@@H](CCC(=O)O)C(=O)N[C@@H](CCCNC(=N)N)C(=O)N[C@@H](Cc1ccc(O)cc1)C(=O)N[C@@H](CC(C)C)C(=O)N[C@@H](CCCCN)C(N)=O)C(C)C)[C@@H](C)CC [SEQ ID NO:42] |  | >97 °C | 13.605 | 33.56 | Aggregates | 85 |
| CC[C@H](C)[C@H](NC(=O)CNC(=O)[C@H](Cc1ccccc1)NC(=O)[C@@H](NC(=O)[C@@H](NC(=O)[C@H](CC(C)C)NC(=O)[C@H](CCC(N)=O)NC(=O)[C@H](CC(C)C)NC(=O)[C@H](CC(C)C)NC(=O)[C@H](Cc1c[nH]cn1)NC(=O)[C@H](CCC(N)=O)NC(=O)[C@H](CCC(N)=O)NC(=O)[C@H](C)NC(=O)[C@H](CCC(=O)O)NC(=O)[C@@H](NC(=O)[C@H](C)NC(=O)[C@H](CCCNC(=N)N)NC(=O)[C@H](CC(C)C)NC(=O)[C@H](CC(C)C)NC(=O)[C@H](CC(N)=O)NC(=O)[C@H](CC(N)=O)NC(=O)[C@H](CCC(N)=O)NC(=O)[C@H](CCC(N)=O)NC(=O)[C@H](CCC(N)=O)NC(=O)[C@@H](NC(=O)[C@@H](NC(=O)CNC(=O)[C@H](CO)NC(=O)[C@H](CC(C)C)NC(=O)[C@H](CC(C)C)NC(=O)[C@H](CCC(N)=O)NC(=O)[C@H](CCCNC(=N)N)NC(=O)[C@H](C)NC(=O)[C@H](CCC(N)=O)NC(C)=O)[C@@H](C)CC)C(C)C)[C@@H](C)CC)[C@@H](C)O)C(C)C)C(=O)N[C@@H](CCCNC(=N)N)C(=O)N[C@@H](CCC(N)=O)C(=O)N[C@@H](CC(C)C)C(=O)N[C@@H](CCC(N)=O)C(=O)N[C@@H](C)C(=O)N[C@@H](CCCNC(=N)N)C(=O)N[C@H](C(=O)N[C@@H](CC(C)C)C(=O)N[C@@H](C)C(=O)N[C@H](C(=O)N[C@@H](CCC(=O)O)C(=O)N[C@@H](CCCNC(=N)N)C(=O)N[C@@H](Cc1ccc(O)cc1)C(=O)N[C@@H](CC(C)C)C(=O)N[C@@H](CCCCN)C(N)=O)C(C)C)[C@@H](C)CC [SEQ ID NO:31] | Yes | Tm 70 °C | 0.93 | 3.06 | Trimer** | 86 |
| CC[C@H](C)[C@H](NC(=O)CNC(=O)[C@H](C)NC(=O)[C@@H](NC(=O)[C@@H](NC(=O)[C@H](CC(C)C)NC(=O)[C@H](CCC(N)=O)NC(=O)[C@H](CC(C)C)NC(=O)[C@H](CC(C)C)NC(=O)[C@H](Cc1c[nH]cn1)NC(=O)[C@H](CCC(N)=O)NC(=O)[C@H](CCC(N)=O)NC(=O)[C@H](C)NC(=O)[C@H](CCC(=O)O)NC(=O)[C@@H](NC(=O)[C@H](C)NC(=O)[C@H](CCCNC(=N)N)NC(=O)[C@H](CC(C)C)NC(=O)[C@H](CC(C)C)NC(=O)[C@H](CC(N)=O)NC(=O)[C@H](CC(N)=O)NC(=O)[C@H](CCC(N)=O)NC(=O)[C@H](CCC(N)=O)NC(=O)[C@H](CCC(N)=O)NC(C)=O)[C@@H](C)CC)[C@@H](C)O)C(C)C)C(=O)N[C@@H](CCCCN)C(=O)N[C@@H](CCC(N)=O)C(=O)N[C@@H](CC(C)C)C(=O)N[C@@H](CCC(N)=O)C(=O)N[C@@H](C)C(=O)N[C@@H](CCCNC(=N)N)C(=O)N[C@H](C(=O)N[C@@H](CC(C)C)C(=O)N[C@@H](C)C(=O)N[C@H](C(=O)N[C@@H](CCC(=O)O)C(=O)N[C@@H](CCCNC(=N)N)C(=O)N[C@@H](Cc1ccc(O)cc1)C(=O)N[C@@H](CC(C)C)C(=O)N[C@@H](CCCCN)C(=O)N[C@@H](CC(=O)O)C(=O)N[C@@H](CCC(N)=O)C(N)=O)C(C)C)[C@@H](C)CC [SEQ ID NO:30] |  | Tm 77 °C | 0.37 | 1.00 | Trimer* | 84 |
